Anti-infective test results gathered from many reports (values: NIAID ChemDB through PubChem).

Shared fields: enzyme or target tests

a–b is a range or a potency band.

| SMILES | read-out | dose | protein | agent | value |
|---|---|---|---|---|---|
| CCOC(=O)c1cnn2c(C3CCCCC3)c(-c3ccc(OC)cc3)cnc12 | IC50 |  | RNA-dependent RNA polymerase | Hepatitis C virus | >10 µM |
| Cc1ccc(CN(C(=O)C2CC2)c2cc(-c3ccccc3)sc2C(=O)O)cc1 | IC50 |  | NS3 ATPase | Hepatitis C virus | 5–20 µM |
| CCOC(=O)C1=CN(N2CCN(c3nc(Nc4ccc5[nH]ncc5c4)nc(OC)n3)CC2)C(SC)N=C1 | inhibition | 0.01 µg/mL | DNA polymerase | Hepatitis B virus | 0% |
| Cc1cc(-c2nc3cc(C(=O)O)ccc3n2C2CCCCC2)cc2ccc(-c3ccccc3)nc12 | inhibition | 33 µM | NS5B polymerase | Hepatitis C virus | 95.57% |
| CC(C)C[C@H](NC(=O)[C@H](CCC(=O)O)NC(=O)[C@@H](NC(=O)CCC(=O)O)C1CCCCC1)C(=O)NC1(C(=O)O)CC1 | IC50 |  | Nonstructural protein 3 NTPase/helicase | Hepatitis C virus | >167 µM |
| Cc1ccccc1S(=O)(=O)Nc1cc(-c2sccc2C)sc1C(=O)O | IC50 |  | NS3 ATPase | Hepatitis C virus | 5–20 µM |
| O=C(Nc1ccsc1-c1nc(C(=O)O)c(O)c(=O)[nH]1)c1ccc(-c2ccccc2)cc1 | IC50 |  | HCV polymerase | Hepatitis C virus | <25 µM |
| O=C(O)c1cc2nc(-c3ccccc3Cl)cc(-c3cccc(Cl)c3)n2n1 | IC50 |  | RNA-dependent RNA polymerase | Hepatitis C virus | >10 µM |
| O=C(Cc1ccc2c(c1)OCO2)Nc1cscc1-c1nc(C(=O)O)c(O)c(=O)[nH]1 | IC50 |  | HCV polymerase | Hepatitis C virus | <25 µM |
| CC[C@H](C)[C@H](NC(=O)[C@@H](NC(=O)CCC(=O)O)C1CCCCC1)C(=O)N[C@@H](CC1CCCCC1)C(=O)NC1(C(=O)O)CC1 | IC50 |  | Nonstructural protein 3 NTPase/helicase | Hepatitis C virus | >83.5 µM |
| O=C(O)c1cc2nc(-c3ccc(Cl)cc3Cl)cc(-c3ccccc3Cl)n2n1 | IC50 |  | RNA-dependent RNA polymerase | Hepatitis C virus | >10 µM |
| O=C(O)c1ccc2c(c1)nc(-c1ccc3nc(-c4ccccc4-c4ccncc4)ccc3c1)n2C1CCCCC1 | inhibition | 33 µM | NS5B polymerase | Hepatitis C virus | 96.18% |
| CC[C@@H](C=O)NC(=O)[C@@H]1C[C@@H](OCc2cc3c(cc2Cl)OCO3)CN1C(=O)[C@@H](NC(=O)[C@@H](NC(=O)c1cnccn1)C(C)C)C(C)C | Ki |  | NS3 protease | Hepatitis C virus | 1–100 µM |
| CC(=O)N[C@@H](CCC(=O)O)C(=O)N[C@@H](CCC(=O)O)C(=O)N[C@@H](CS)C(=O)O | inhibition | 16.7 µM | Nonstructural protein 3 NTPase/helicase | Hepatitis C virus | 15% |
| CC[C@@H](C=O)NC(=O)[C@@H]1C[C@@H](NC(=O)OCc2ccccc2)CN1C(=O)[C@@H](NC(=O)[C@@H](NC(=O)c1cnccn1)C(C)C)C(C)C | Ki |  | NS3 protease | Hepatitis C virus | >100 µM |
| COc1nc(Nc2ccc3[nH]ncc3c2)nc(N2CCN(CCO)CC2)n1 | inhibition | 0.01 µg/mL | DNA polymerase | Hepatitis B virus | 12% |
| O=C(O)c1ccc2c(c1)nc(-c1ccc3nc(-c4cc(O)ccc4-c4ccc(Cl)cc4)ccc3c1)n2C1CCCCC1 | inhibition | 100 µM | NS5B polymerase | Hepatitis C virus | 101% |
| COc1nc(NCCc2ccccn2)nc(Nc2ccc3cn[nH]c3c2)n1 | inhibition | 0.01 µg/mL | DNA polymerase | Hepatitis B virus | 20% |
| O=C(Nc1ccccc1)Nc1cccc(-c2nc(C(=O)O)c(O)c(=O)[nH]2)c1 | IC50 |  | HCV polymerase | Hepatitis C virus | <100 µM |
| O=C(O)CCC(=O)N[C@H](C(=O)N[C@@H](CCC(=O)O)C(=O)N[C@@H](CCC(=O)O)C(=O)NC1(C(=O)O)CC1)C1CCCCC1 | IC50 |  | Nonstructural protein 3 NTPase/helicase | Hepatitis C virus | <167 µM |
| O=C(O)c1ccc2c(c1)nc(-c1ccc3nc(-c4cccc(OCC(=O)N5CCCC5)c4)ccc3c1)n2C1CCCCC1 | inhibition | 100 µM | NS5B polymerase | Hepatitis C virus | 96.99% |
| CC(C)N(C(=O)c1ccc(Cl)cc1I)c1cc(-c2ccccc2)sc1C(=O)O | IC50 |  | NS3 ATPase | Hepatitis C virus | <5 µM |
| O=C(O)c1ccc2c(c1)nc(-c1ccc3nc(-c4cccc(OCCCN5CCCC5)c4)ccc3c1)n2C1CCCCC1 | inhibition | 33 µM | NS5B polymerase | Hepatitis C virus | 93.43% |
| COc1nc(Nc2ccc3cn[nH]c3c2)nc(N2CCCC2)n1 | inhibition | 10 µg/mL | Nonstructural protein 5B | Hepatitis C virus | 65% |
| CC(C)CC(=O)N(Cc1ccc(Cl)cc1)c1cc(-c2ccccc2)sc1C(=O)O | IC50 |  | NS3 ATPase | Hepatitis C virus | 5–20 µM |
| O=C(O)c1cc2nc(-c3ccccc3)cc(-c3ccccc3)n2n1 | IC50 |  | RNA-dependent RNA polymerase | Hepatitis C virus | >10 µM |
| CCC(C)[C@H](NC(=O)[C@@H](NC(=O)CCC(=O)O)C1CCCCC1)C(=O)N[C@@H](CC1CCCCC1)C(=O)N[C@@H](CS)C(=O)O | inhibition | 1.67 µM | Nonstructural protein 3 NTPase/helicase | Hepatitis C virus | 29% |
| CCOC(=O)c1ccc2c(c1)nc(-c1ccc3nc(-c4cc(OC)ccc4-c4ccc(F)cc4)ccc3c1)n2C1CCCCC1 | inhibition | 33 µM | NS5B polymerase | Hepatitis C virus | 64.68% |
| CC[C@@H](C=O)NC(=O)[C@@H]1C[C@@H](OC(=O)Nc2cccc3ccccc23)CN1C(=O)[C@@H](NC(=O)[C@@H](NC(=O)c1cnccn1)C(C)C)C(C)C | Ki |  | NS3 protease | Hepatitis C virus | 1–100 µM |
| C=Cc1ccccc1S(=O)(=O)Nc1cc(-c2ccccc2)sc1C(=O)O | IC50 |  | NS3 ATPase | Hepatitis C virus | 5–20 µM |
| O=C(Cc1csc2ccccc12)Nc1ccsc1-c1nc(C(=O)O)c(O)c(=O)[nH]1 | IC50 |  | HCV polymerase | Hepatitis C virus | <25 µM |
| CC(=O)c1cccc(-c2cc(N(C)C(=O)c3ccc(C)cc3)c(C(=O)O)s2)c1 | IC50 |  | NS3 ATPase | Hepatitis C virus | 5–20 µM |
| COc1nc(Nc2ccc3[nH]ncc3c2)nc(N2CCC(C(N)=O)CC2)n1 | inhibition | 1 µg/mL | DNA polymerase | Hepatitis B virus | 59% |
| O=C(NCc1cccc(Cl)c1Cl)Nc1ccccc1-c1nc(C(=O)O)c(O)c(=O)[nH]1 | IC50 |  | HCV polymerase | Hepatitis C virus | <100 µM |
| CC[C@@H](C=O)NC(=O)[C@@H]1C[C@@H](OCc2ccccc2)CN1C(=O)[C@@H](NC(=O)[C@H](Cc1ccccc1)NC(=O)c1cnccn1)C(C)C | Ki |  | NS3 protease | Hepatitis C virus | 1–100 µM |
| O=C(O)c1cnn2c(-c3ccccc3)c(-c3ccc(OCc4ccccc4)cc3)cnc12 | IC50 |  | RNA-dependent RNA polymerase | Hepatitis C virus | >10 µM |
| COc1nc(Nc2ccc3cn[nH]c3c2)nc(N2CCOCC2)n1 | inhibition | 0.1 µg/mL | DNA polymerase | Hepatitis B virus | 41% |
| CC[C@@H](C=O)NC(=O)[C@@H]1C[C@@H](OCc2ccccc2)CN1C(=O)[C@@H](NC(=O)C1(c2ccccc2)CC1)C(C)C | Ki |  | NS3 protease | Hepatitis C virus | >100 µM |
| CON1C(Nc2ccc3cn[nH]c3c2)=NC(NC(C)C)=NC1NC(C)C | inhibition | 10 µg/mL | Nonstructural protein 5B | Hepatitis C virus | 25% |
| O=C(O)c1nc(-c2sccc2NC(=O)C2CN(C(c3ccccc3)c3ccccc3)C2)[nH]c(=O)c1O | IC50 |  | HCV polymerase | Hepatitis C virus | <25 µM |
| CNC(=O)C1CCN(c2nc(Nc3ccc4[nH]ncc4c3)nc(OC)n2)CC1 | inhibition | 0.01 µg/mL | DNA polymerase | Hepatitis B virus | 2% |
| O=C(O)CCC(=O)N[C@H](C(=O)N[C@@H](CCC(=O)O)C(=O)N[C@@H](Cc1ccccc1)C(=O)N[C@@H](CS)C(=O)O)C(c1ccccc1)c1ccccc1 | inhibition | 16.7 µM | Nonstructural protein 3 NTPase/helicase | Hepatitis C virus | 31% |
| COc1ccc2[nH]c(C)c(CC(=O)Nc3ccsc3-c3nc(C(=O)O)c(O)c(=O)[nH]3)c2c1 | IC50 |  | HCV polymerase | Hepatitis C virus | <25 µM |
| CC[C@@H](C=O)NC(=O)[C@@H]1C[C@@H](OCc2ccccc2)CN1C(=O)[C@@H](NC(=O)[C@H](Cc1ccc(OCc2ccccc2)cc1)NC(=O)c1cnccn1)C(C)C | Ki |  | NS3 protease | Hepatitis C virus | 1–100 µM |
| COc1nc(NCCc2ccccn2)nc(Nc2ccc3[nH]ncc3c2)n1 | inhibition | 1 µg/mL | DNA polymerase | Hepatitis B virus | 65% |
| CC[C@@H](C=O)NC(=O)[C@@H]1C[C@@H](OCc2cccc(C(F)(F)F)c2)CN1C(=O)[C@@H](NC(=O)[C@@H](NC(=O)c1cnccn1)C(C)C)C(C)C | Ki |  | NS3 protease | Hepatitis C virus | 1–100 µM |
| CC(C)(C)OC(=O)N[C@H](COC(=O)Nc1ccsc1-c1nc(C(=O)O)c(O)c(=O)[nH]1)c1ccccc1 | IC50 |  | HCV polymerase | Hepatitis C virus | <25 µM |
| CCCCC(=O)N(C)c1cc(-c2ccccc2)sc1C(=O)O | IC50 |  | NS3 ATPase | Hepatitis C virus | <5 µM |
| O=C(O)CCCC(=O)N[C@@H](CCC(=O)O)C(=O)N[C@@H](CCC(=O)O)C(=O)NC1(C(=O)O)CC1 | inhibition | 167 µM | Nonstructural protein 3 NTPase/helicase | Hepatitis C virus | 24% |
| COc1cccc(CN(C(=O)c2ccc(C)cc2)c2cc(-c3ccccc3)sc2C(=O)O)c1 | IC50 |  | NS3 ATPase | Hepatitis C virus | <5 µM |
| CC[C@@H](C=O)NC(=O)[C@@H]1C[C@@H](OC(=O)Nc2c(Cl)cccc2Cl)CN1C(=O)[C@@H](NC(=O)[C@@H](NC(=O)c1cnccn1)C(C)C)C(C)C | Ki |  | NS3 protease | Hepatitis C virus | 1–100 µM |

ICn: concentration for n% inhibition. Neighbouring rows are from separate reports. An empty or dashed field is not shown. Percent inhibition refers to the dose given; in toxicity tests it is the harm to the cells.